Source: ChEMBL document CHEMBL3988442, “University of Dundee, Small-Polar-MMV Screening Library” (2021).

Results are given as percent effect. How 0% and 100% were set is not recorded. Most values in the screen are low, and negative values occur. The entries come from a sample that favours strong results.

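Phenotypic screen: M. tuberculosis growth, cholesterol and DPPC medium, 4 days; the read-out is not stated. Tested at 500 µM. The record gives no direction; compounds that gave an IC50 in retests scored well above the rest, so higher reads as more growth inhibition. About 18,000 compounds were tested under these conditions; 5% (about 900) showed 50% or more at least once.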

Compound | Percent Effect
COc1ccc(C(CN)CO)cc1 (centres unmarked) | 4.295%
CCN1CCN(CC(C)CNc2ccncc2Cl)CC1 (centres unmarked) | 1.7%
CCN1C[C@H](NC(=O)c2ccc(Cl)s2)[C@@H](OC)C1 | 51.35%
O=C(NCc1ccccn1)n1ccnc1 | -87.56%
CCn1nc(C)cc1C(=O)Nc1ccnc(N(C)C)n1 | 58.68%
N#Cc1cccc(C(=O)OCCCn2cccn2)c1 | 68.64%
CC(C)Sc1ncccc1C(=O)NCC1CCOC1 (centres unmarked) | -0.9223%
Cc1nn(C)c(C)c1CCC(=O)N[C@@H]1CCNC[C@H]1O | 11.49%
COC(=O)c1ccc(C(=O)NC2CC2)nc1 | 7.509%
Cc1ccc(C(=O)Nc2nc(C)cs2)cn1 | 36.73%
O=C(CN1CCC(O)CC1)Nc1ccccc1F | 3.904%
NC1CCN(Cc2cc(O)c3cc(F)ccc3n2)C1 (centres unmarked) | -14.14%
N#CCC1(O)CN(S(=O)(=O)C=Cc2ccc(Cl)cc2)C1 | 49.09%
O=C1CCCCN1c1ccc(S(=O)(=O)NC2CC2)cc1 | -18.49%
Cc1ocnc1C(=O)N1CC(=O)Nc2ccc(Br)cc21 | -5.619%
CC(C)Oc1ccc(CNC(=O)N2CCCC2)cn1 | 59.87%
NCc1ccnc(O)c1 | -22.12%
Cc1cc(CN)c(C)n1C | 14.52%
Cc1nnc(CN(C)C(=O)CN(C)C2CCCC2)o1 | -0.2334%
NCCCc1nc2ccccc2o1 | 66.66%
CC(C)(C)OC(=O)N[C@@H]1CCCNC1 | -21.83%
CN1CCCN(C(=O)c2cc3ccccc3[nH]2)CC1 | 4.203%
CC(C)(C)CC(=O)NCC(=O)N1CCOC(C)(C)C1 | -5.88%
CCn1cnnc1CNCc1c[nH]nc1C | 4.834%
CCCNC(=O)NCCc1noc(-c2cccnc2)n1 | 5.047%
CC(C)CNc1nc(N)c2cn[nH]c2n1 | 73.6%
OC(Cn1nnc(-c2ccsc2)n1)CC(F)(F)F (centres unmarked) | 88.73%
CC(C)SCC(=O)N(C)C(C)c1ccncc1 (centres unmarked) | 17.4%
O=C(c1ccncc1)N1CCOc2ccccc21 | -17.43%
O=C(C1CCCN(C2CCNCC2)C1)N1CCCC1 (centres unmarked) | -2.613%
CCc1ccc(CN(C)C(=O)c2cccn2C)nc1 | 64.43%
COCc1csc(CO)c1 | 3.589%
CNC(=O)CCCNCc1c(C(C)C)nn(C)c1OC | 6.053%
COc1ccc(OC)c(CCN)c1 | 6.723%
CCNC(=O)CN1CCCC(c2nccn2CC)C1 (centres unmarked) | -7.684%
Cn1cnc(S(=O)(=O)NCCc2cccnc2)c1Cl | -5.336%
CCCNC(=O)c1cnn(C)c1-n1cccc1 | -22.41%
Cc1cccc(CN2CCC(C(=O)N(C)C)CC2)c1 | 11.59%
OCCNCCNCc1cccc(Cl)c1Cl | 52.78%
NCCC(=O)N1CCN(c2ccccn2)CC1 | 9.651%
CC(C)(C)OCCCN | -3.837%
COC(=O)[C@H](C)NC(=O)c1noc2c1CCCCC2 | 80.16%
O=C(CSCCO)Nc1ncc(-c2ccccc2)s1 | 61.03%
CNC(=O)NCCc1c[nH]c2ncccc12 | -8.572%
COc1cc(F)cc(NCC(=O)NCc2ccco2)c1 | 73.23%
CC(=O)c1cccc(C(=O)N2C[C@H](C3CC3)[C@@H](N)C2)c1 | -2.264%
NCc1cccc(C(=O)N2CCOCC2)c1 | -11.55%
CCC(CC)NC(=O)CCn1cncn1 | -17.86%
CN(C)CCOC1CCNC1 (centres unmarked) | 5.36%
CCCc1noc(C(C)Nc2cccc(C(N)=O)c2)n1 (centres unmarked) | 62.89%
CCOC(=O)c1cnn(-c2ccc(OCC)cc2)c1N | 51.87%
CNC(=O)C(C)S(=O)(=O)Cc1cc(C)ccc1C (centres unmarked) | -4.813%
CC(CNCC(F)(F)CO)c1ccccc1 (centres unmarked) | 54.59%
Cc1ccccc1C(O)C1CCNCC1 (centres unmarked) | -13.53%
O=C(c1cc(Br)c[nH]1)N1CCCCC1 | 13.75%
c1ccc2c(c1)CCOC21CCNCC1 | 8.087%
OCCn1ncc2c1CN(CCc1ccccn1)C2 | -39.8%
CS(=O)(=O)CCS(=O)(=O)CC=Cc1ccccc1 | -2.282%
CCN1CCN(CC(=O)Nc2cc(C)cc(C)c2)CC1 | 32.96%
Cc1cnc(C)c(N2CCNCC2)n1 | 3.203%
CSc1cncc(NCCC(=O)N2CCCC2)n1 | 53.66%
N#CC1(NC(=O)CCSc2ccccn2)CCC1 | 12.44%
COc1ccnc(C(=O)N(C)Cc2cnccn2)c1 | 7.225%
Cc1nnnn1CCC(=O)N1CC(N2CCCCC2)C1 | -10.81%
CNc1cc(C(=O)NCc2csc(N(C)C)n2)ccn1 | 5.854%
COc1cccc(C(=O)Nc2ccnn2C(C)C)c1 | 56.04%
COCC(C)(CCO)NCc1nc(C)no1 (centres unmarked) | 3.452%
COC(=O)N1CC(NC(=O)c2cc(C(C)=O)c[nH]2)C1 | 72.84%
Cc1ccc(C(=O)NCCN2CCOCC2)c(C)c1 | -2.337%
CC(C)CC(C)S(N)(=O)=O (centres unmarked) | -1.991%
Cc1ccc(F)cc1C(=O)NCC1(O)CCNC1 (centres unmarked) | -4.189%
CCC(CO)Nc1ncc(C(F)(F)F)cc1Cl (centres unmarked) | 63.31%
C1CCC(COCCc2noc(C3CNC3)n2)C1 | 115.9%
CCc1cnc(NC(=O)N2CCC(O)C2)s1 (centres unmarked) | 4.273%
Cc1cc(C(=O)N2CCN(Cc3ccsc3)CC2)[nH]n1 | 84.01%
NC(=O)NC(=O)CCn1cc(I)cn1 | 10.33%
Cc1oncc1CN1C[C@@H](F)C[C@H]1CN | 4.554%
O=C(C1CCCC1)N1CCN(C(=O)C2CCCO2)CC1 (centres unmarked) | 2.994%
CCNC(=O)c1ccc(CN)cc1 | 0.8182%
COCc1nn(Cc2cccc(C#N)c2)c(=O)o1 | 30.81%
CCCc1cc(CN(C)C(=O)c2ccnnc2)n[nH]1 | 8.012%
CCN(CC)C(=O)c1ccc(=O)n(CCOC)n1 | -5.745%
Cc1cc(C)cc(C(=O)N2CCC3(CC2)OCCO3)c1 | 15.95%

The first 7 entries again:

- COc1ccc(C(CN)CO)cc1 (centres unmarked) | 4.295%
- CCN1CCN(CC(C)CNc2ccncc2Cl)CC1 (centres unmarked) | 1.7%
- CCN1C[C@H](NC(=O)c2ccc(Cl)s2)[C@@H](OC)C1 | 51.35%
- O=C(NCc1ccccn1)n1ccnc1 | -87.56%
- CCn1nc(C)cc1C(=O)Nc1ccnc(N(C)C)n1 | 58.68%
- N#Cc1cccc(C(=O)OCCCn2cccn2)c1 | 68.64%
- CC(C)Sc1ncccc1C(=O)NCC1CCOC1 (centres unmarked) | -0.9223%